## Library screen at single concentrations

Mtb glucose medium: 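Whole-cell growth test on Mycobacterium tuberculosis, read after 3 days in glucose-containing 7H9 medium; the read-out is not stated. Compounds at 500 µM. Higher reads as more growth inhibition (inferred: compounds with an IC50 in retests scored well above the rest). About 18,000 compounds were tested under these conditions; 7.9% (about 1,400) showed 50% or more at least once.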
Mtb cholesterol medium: 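Growth of Mycobacterium tuberculosis over 4 days (cholesterol / DPPC medium with tyloxapol); the read-out is not stated. Compounds at 500 µM. The record gives no direction; compounds that gave an IC50 in retests scored well above the rest, so higher reads as more growth inhibition. Of about 18,000 compounds tested this way, about 900 (5%) reached 50% or more in at least one test.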

Values are the deposited “Percent Effect”, in %.
The record does not define 0% and 100%; most values in the screen are far below 50% and negative numbers occur (in some assays of this library far below -100).
The entries come from a sample that favours strong results.
A dash means the value is not listed here; it may have been measured.

structure	Mtb glucose medium	Mtb cholesterol medium
CN(Cc1nnc(N)o1)C(=O)c1ccccc1	-	11.76
CC(C)N1CCC2(CC1)Nc1ccccc1NC2=O	14.59	-
Cc1nn(C)c(C)c1CC(N)=O	6.181	-
CCc1nnsc1C(=O)N1CCN(c2nccs2)CC1	-3.64	-
O=C(c1ccc(Cl)cc1)N1CCCNCC1	29.94	-
COc1ccc(C)cc1CC(=O)N1CCN(C)CC1	4.566	-
CC(C)C(C)NC(=O)CNC(=O)C1CC1 (stereo unspecified)	3.57	-
CN(C)C(=O)CN1CCC(CN)CC1	-1.532	-
CC(=O)N1CCC(C(=O)c2ccc(C)cc2)CC1	57.76	-
CC(C)C(=O)c1ccncc1	7.188	-
CN(C)CCNC(=O)[C@@H](N)Cc1ccccc1	23.15	-
CC(=O)N1CCN(C(=O)c2cc3ccccc3o2)CC1	16.75	-
CN1CCN(C(=O)c2cc(-c3cccs3)on2)CC1	59.55	38.76
CCOc1ccccc1C(=O)Nc1nnc[nH]1	-	-1.025
NCC(O)c1ccc(F)c(F)c1 (stereo unspecified)	36.11	15.62
CNC(=O)c1cc(S(=O)(=O)Nc2ccccn2)cs1	-6.158	-
CC1CN(CCCOc2ccc(C#N)cc2)CCN1 (stereo unspecified)	67.2	64.76
OCC1CSc2ccccc21 (stereo unspecified)	24.2	-
CCCNC(=O)CNC(=O)Cc1c[nH]c2ccccc12	17.22	-
O=C1CC2(CCSC2)C(=O)N1Cc1ccc(Cl)cn1 (stereo unspecified)	-14.12	-
COc1cccc(CN2CCC(N(C)C(C)=O)CC2)c1	4.534	8.731
CCN(C)C(=O)Nc1ccc(C(=O)OC)c(F)c1	50.7	67.03
NC(=O)c1ccc(=O)n(Cc2ccc(Br)s2)n1	42.88	18.08
OCCC1COc2ccc(F)cc2N1 (stereo unspecified)	51.56	-
NCCc1nc2cc(F)ccc2s1	14.3	-
COCC1(C(=O)NC(Cn2ccnc2)C(C)(C)C)CC1 (stereo unspecified)	-	9.35
CN(C)C(CNC(=O)c1cnn(C)c1)c1ccsc1 (stereo unspecified)	-	12.14
NC1COc2ccccc21 (stereo unspecified)	-	-1.405
CN(C)C(=O)CNC(=O)c1cc2ccccc2cc1O	1.175	-
Cn1c(COC(=O)C2(C)CCCC2)cc(=O)n(C)c1=O	-3.819	-
O=S(=O)(CCN1CCC(CO)CC1)c1ccc(Cl)cc1	-	23.61
COc1ccc(C(N)C2CCOCC2)cc1 (stereo unspecified)	-1.76	-
CN(C)[C@@H]1CN(C(=O)c2ccnc(O)c2)C[C@H]1CO	3.746	-
CN(CC(N)=O)C(=O)CCc1nc2ccccc2s1	-2.706	-
COCCNC(=O)c1cc(-c2ccccc2F)no1	79.06	72.98
O=C(C1CCCN1c1ccncc1Cl)N1CCSCC1 (stereo unspecified)	-	4.762
CC1(C)C[C@@H]1C(=O)Nc1cnccc1N1CCOCC1	-	-0.4257
CC(C)Cn1cc(NC(=O)N2CCC(O)C2)cn1 (stereo unspecified)	-	-27.37
O=C(C1CCC1)N(C1CC1)C1CCS(=O)(=O)C1 (stereo unspecified)	-	-4.272
CC(C)NC(=O)COC(=O)C1=NN(C)C(=O)CC1	-	11.21
Cc1cccc(NC(=O)CN(C)Cc2nnsc2Cl)n1	54.81	-
CC(=O)CN1CCCc2ccccc2C1	38.11	-
CC1CN(CCS(=O)(=O)c2ccccc2)CCO1 (stereo unspecified)	19.19	-

4 of the entries, repeated:

structure,Mtb glucose medium,Mtb cholesterol medium
CN(C)[C@@H]1CN(C(=O)c2ccnc(O)c2)C[C@H]1CO,3.746,-
CC1CN(CCCOc2ccc(C#N)cc2)CCN1 (stereo unspecified),67.2,64.76
NCC(O)c1ccc(F)c(F)c1 (stereo unspecified),36.11,15.62
CNC(=O)c1cc(S(=O)(=O)Nc2ccccn2)cs1,-6.158,-

Measurements from “University of Dundee, Small-Polar-MMV Screening Library” (2021), ChEMBL document CHEMBL3988442.